Test results from patent publication US20220033460A1 (published 2022).

Target: DRB1*15:01
Assay: competitive fluorescence polarization

Binder KRISNCYADYSVLYN [KRISNCYADYSVLYN (position 356)] has an IC50 of 623 nM.
